# Measurements: patent EP4837635A2, “SOLID PHARMACEUTICAL COMPOSITIONS FOR TREATING HCV” (dated 2026)
# Test: Single-dose crossover clinical study: bioavailability of Compound 1/Compound 2 mini-tablets
# Settings: mini-tablets (200 mg Compound 1) administered with food; reference regular tablets fasting
# Procedure: In comparison, when administered with food, the mini-tablets provided an AUC that was only 5% lower than that provided by the regular tablets. […] All of the reference AUCs of the regular tablets were measured under fasting conditions.
# 14 subjects were enrolled in this study and dosed with co-formulated Compound 1/Compound 2 in mini-tablets. One subject spilled 4 mini-tablets (out of 100-150 total mini-tablets) during dosing of Period 2 (Regimen G) and was not excluded from the analysis. The mini-tablets were prepared according to a process similar to that described in Example 2.
smiles,measurement,value
CC(C)(C)[C@@H]1NC(=O)O[C@@H]2CCC[C@H]2OC/C=C/C(F)(F)c2nc3ccccc3nc2O[C@@H]2C[C@@H](C(=O)N[C@]3(C(=O)NS(=O)(=O)C4(C)CC4)C[C@H]3C(F)F)N(C2)C1=O,AUC of mini-tablets lower than that provided by regular tablets,5%
